Key:
Phomopsis asparagi = experiment: Growth inhibition of Phomopsis asparagi at 50 ppm relative to control
[1] = system: Botryosphaeria berengeriana; experiment: Growth inhibition of Botryosphaeria berengeriana at 50 ppm relative to control

Row | SMILES | growth inhibition (GI) (Phomopsis asparagi) [%] | growth inhibition (GI) [1] [%]
1 | CCOP(=S)(NN1C(=O)CS/C1=N/[C@@H]1O[C@H](COC(C)=O)[C@@H](O[C@H]2O[C@H](CC(C)=O)[C@@H](OC(C)=O)[C@H](OC(C)=O)[C@H]2OC(C)=O)[C@H](OC(C)=O)[C@H]1OC(C)=O)OCC | 40 | 40
2 | COP(=S)(NN1C(=O)CS/C1=N\[C@@H]1O[C@H](COC(C)=O)[C@H](OC(C)=O)[C@H](OC(C)=O)[C@H]1OC(C)=O)c1ccccc1 (some centres not stated) | 40 | 40
3 | CCOP(=S)(NN1C(=O)CS/C1=N/[C@@H]1OC[C@@H](OC(C)=O)[C@H](OC(C)=O)[C@H]1OC(C)=O)OCC | 40 | 40
4 | CCOP(=S)(NN1C(=O)CS/C1=N/[C@@H]1O[C@H](COC(C)=O)[C@@H](OC(C)=O)[C@H](OC(C)=O)[C@H]1OC(C)=O)OCC | 40 | 40
5 | CCOP(=S)(NN1C(=O)CS/C1=N\[C@@H]1O[C@H](COC(C)=O)[C@H](OC(C)=O)[C@H](OC(C)=O)[C@H]1OC(C)=O)OCC | 40 | 40
6 | CCCOP(=S)(NN1C(=O)CS/C1=N/[C@@H]1O[C@H](COC(C)=O)[C@@H](OC(C)=O)[C@H](OC(C)=O)[C@H]1OC(C)=O)c1ccccc1 (some centres not stated) | 40 | 40
7 | COP(=S)(NN1C(=O)CS/C1=N/[C@@H]1O[C@H](COC(C)=O)[C@@H](OC(C)=O)[C@H](OC(C)=O)[C@H]1OC(C)=O)c1ccccc1 (some centres not stated) | 40 | 40
8 | CCOP(=S)(NN1C(=O)CS/C1=N/[C@@H]1O[C@H](COC(C)=O)[C@@H](O[C@@H]2O[C@H](CC(C)=O)[C@H](OC(C)=O)[C@H](OC(C)=O)[C@H]2OC(C)=O)[C@H](OC(C)=O)[C@H]1OC(C)=O)OCC | 40 | 40
9 | COP(=S)(NN1C(=O)CS/C1=N/[C@@H]1OC[C@@H](OC(C)=O)[C@H](OC(C)=O)[C@H]1OC(C)=O)OC | 40 | 40
10 | COP(=S)(NN1C(=O)CS/C1=N/[C@@H]1OC[C@@H](OC(C)=O)[C@H](OC(C)=O)[C@H]1OC(C)=O)c1ccccc1 (some centres not stated) | 40 | 40
11 | CCOP(=S)(NN1C(=O)CS/C1=N/[C@@H]1OC[C@@H](OC(C)=O)[C@H](OC(C)=O)[C@H]1OC(C)=O)c1ccccc1 (some centres not stated) | 40 | 40

From ChEMBL document CHEMBL3045492, “Regioselective synthesis of novel 3-alkoxy (phenyl) thiophosphorylamido-2-(per-O-acetylglycosyl-1'-imino)thiazolidine-4-one derivatives from O-alkyl N4-glycosyl(thiosemicarbazido)phosphonothioates” (2009)
